## DMS reactivity of the HIV-1 5' RNA in monomer and dimer

Reference: Ye et al. 2022, doi:10.1038/s41594-022-00746-2.

The 5' region of HIV-1 NL4-3 RNA (positions 1-437):
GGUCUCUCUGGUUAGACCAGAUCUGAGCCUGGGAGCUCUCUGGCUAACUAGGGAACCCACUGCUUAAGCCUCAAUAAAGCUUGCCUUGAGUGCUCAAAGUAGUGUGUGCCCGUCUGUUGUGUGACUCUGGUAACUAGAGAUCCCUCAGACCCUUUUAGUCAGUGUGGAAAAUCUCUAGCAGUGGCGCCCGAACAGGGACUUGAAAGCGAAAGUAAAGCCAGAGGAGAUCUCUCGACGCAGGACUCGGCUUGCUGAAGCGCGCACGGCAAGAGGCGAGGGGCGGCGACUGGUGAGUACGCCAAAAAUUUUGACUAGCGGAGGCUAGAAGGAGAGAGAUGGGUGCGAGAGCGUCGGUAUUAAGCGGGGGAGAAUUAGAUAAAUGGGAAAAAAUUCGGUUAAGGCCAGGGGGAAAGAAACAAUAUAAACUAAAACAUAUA

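Mutant RNA libraries with 1G, 2G or 3G starts, with or without cap, were folded at 37 °C for 30 min. High salt was 300 mM KCl and 5 mM MgCl2, low salt 40 mM KCl and 0.1 mM MgCl2; monomer and dimer were parted on a native gel. Each band was probed in the gel with DMS (170 mM, 15 min, 37 °C), with ethanol as control, and sequenced.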

Values are winsor-normalised DMS reactivities of A and C; higher means more reactive, usually unpaired.
Sample: 2G uncapped high-salt dimer.
One numbering serves 1G, 2G and 3G.
A position is written with its base.

| position | 2G uncapped high-salt dimer |
|---|---|
| A421 | 0.37 |
| C109 | 0.21 |
| C57 | 0.03 |
| C287 | 0.42 |
| A77 | 0.67 |
| A360 | 0.65 |
| C110 | 0.17 |
| A387 | 0.23 |
| C322 | 0.03 |
| A269 | 0.21 |
| A319 | 0.93 |
| A209 | 0.39 |
| C258 | 0.19 |
| A415 | 0.23 |
| C144 | 0.03 |
| A301 | 0.25 |
| A376 | 0.76 |
| A216 | 0.78 |
| C264 | 0.17 |
| C281 | 0.41 |
| A227 | 0.19 |
| C70 | 0.03 |
| C284 | 0.15 |
| A225 | 0.86 |
| C299 | 0.07 |
| A101 | 0.13 |
| C38 | 0.03 |
| A203 | 0.51 |
| C274 | 0.20 |
| C312 | 0.08 |
| C60 | 0.17 |
| A371 | 0.89 |
| A334 | 0.41 |
| C188 | 0.07 |
| C267 | 0.04 |
| C231 | 0.13 |
| A276 | 0.32 |
| C146 | 0.09 |
| A210 | 0.48 |
| A414 | 0.51 |
| A435 | 0.48 |
| C29 | 0.08 |
| C72 | 0.09 |
| C262 | 0.18 |
| A239 | 0.75 |
| A330 | 0.77 |
| C248 | 0.03 |
| C111 | 0.24 |
| C207 | 0.56 |
| C236 | 0.39 |
| C432 | 0.89 |
| A433 | 0.71 |
| C233 | 0.14 |
| C134 | 0.13 |
| C193 | 0.73 |
| A132 | 0.57 |
| C252 | 0.03 |
| C36 | 0.03 |
| A235 | 0.75 |
| A380 | 0.80 |
| A211 | 0.51 |
| A256 | 1.11 |
| C187 | 0.03 |
| C84 | 0.64 |
| C219 | 0.07 |
| A242 | 1.06 |
| C245 | 0.05 |
| A429 | 0.72 |
| A204 | 0.73 |
| A149 | 0.07 |
| A412 | 0.49 |
| A424 | 0.41 |
| A263 | 0.93 |
| A327 | 1.07 |
| A177 | 0.25 |
| A379 | 0.61 |
| C48 | 0.04 |
| A390 | 0.86 |

9 of these entries, quoted again:

{"position": "A225", "2G uncapped high-salt dimer": 0.86}
{"position": "C207", "2G uncapped high-salt dimer": 0.56}
{"position": "A330", "2G uncapped high-salt dimer": 0.77}
{"position": "C70", "2G uncapped high-salt dimer": 0.03}
{"position": "A360", "2G uncapped high-salt dimer": 0.65}
{"position": "A371", "2G uncapped high-salt dimer": 0.89}
{"position": "A132", "2G uncapped high-salt dimer": 0.57}
{"position": "C312", "2G uncapped high-salt dimer": 0.08}
{"position": "A263", "2G uncapped high-salt dimer": 0.93}